The list shows a part of the results, in another mix than the full data. Potency and affinity values are given separately. The source made the active and inactive calls. No rule for the calls is given here.

Sequences of proteins named here, by UniProt entry; tags and fusion partners are left off. A change or cut given only in a name is not applied to a line headed by its entry.
UniProt P9WQ59: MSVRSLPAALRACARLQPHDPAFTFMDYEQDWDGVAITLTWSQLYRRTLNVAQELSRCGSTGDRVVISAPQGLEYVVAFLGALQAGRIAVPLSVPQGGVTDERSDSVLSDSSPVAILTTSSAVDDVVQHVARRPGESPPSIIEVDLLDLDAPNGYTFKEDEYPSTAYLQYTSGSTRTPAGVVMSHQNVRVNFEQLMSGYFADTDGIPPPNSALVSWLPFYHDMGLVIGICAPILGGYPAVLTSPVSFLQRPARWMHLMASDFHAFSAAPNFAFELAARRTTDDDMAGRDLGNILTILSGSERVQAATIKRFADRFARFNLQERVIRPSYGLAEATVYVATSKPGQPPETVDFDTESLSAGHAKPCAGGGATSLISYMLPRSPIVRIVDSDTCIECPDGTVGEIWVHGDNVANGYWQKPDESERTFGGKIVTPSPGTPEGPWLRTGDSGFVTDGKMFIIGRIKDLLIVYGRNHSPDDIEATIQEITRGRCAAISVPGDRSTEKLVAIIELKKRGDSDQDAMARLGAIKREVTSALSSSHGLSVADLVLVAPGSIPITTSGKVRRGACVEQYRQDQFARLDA

In this assay the target is Long-chain-fatty-acid--AMP ligase FadD28 (Mycobacterium tuberculosis (strain ATCC 25618 / H37Rv)) (UniProt P9WQ59). Description: inhibitors of FadD28 bisubstrate probe binding, dose response, biochemical, fluorescence polarization, cherry-pick (AID 624273). The settings on record: at 50 µM (top of the series). On the technique in general: Polarisation of emitted light reports the rotation of a fluorescent probe.
On to `Nc1cccc2ccc([As](=O)(O)O)cc12`, for which the activity change, negative = inhibition is inactive: -12.9%.

As to `CCN(/C(=N/P(=O)(N1CCOCC1)N1CCOCC1)N1CCOCC1)c1ccc(OC)cc1`, the activity change, negative = inhibition is inactive: -7.66%.

These data come from PubChem BioAssay AID624273 (Broad Institute, 2012).
